Measurements as given in PMC7952905, “Bat and pangolin coronavirus spike glycoprotein structures provide insights into SARS-CoV-2 evolution” (2021).

Assays:
[1] = target: PCoV_GX spike ectodomain (1-1205), 2P (pangolin coronavirus PCoV_GX)
[2] = target: RaTG13 spike ectodomain (1-1209), 2P (bat coronavirus RaTG13)

Substance | stoichiometry N [1] | stoichiometry N [2]
PCoV_GX spike ectodomain (1-1205), 2P | 3 | 
RaTG13 spike ectodomain (1-1209), 2P |  | 3
